From publication PMC4133393, “Structure of CfaA Suggests a New Family of Chaperones Essential for Assembly of Class 5 Fimbriae” (2014) come the findings set out here.

In the test the target is (his)6CfaB, mature CfaB (residues 24–170) with N-terminal hexahistidine tag (enterotoxigenic E. coli (ETEC)) (UniProt E3PPC4). As to the kind of experiment: pull-down.

With CfaA (20–238) E86A (natural protein), the CfaA/CfaB ratio came to 0.32.

As for CfaA (20–238) L114A (natural protein), the CfaA/CfaB ratio turned out to be 0.36.

CfaA (20–238) Y120A (natural protein): the CfaA/CfaB ratio came to 0.13.

For the substance “CfaA (20–238) T44A/E45A/E46A (natural protein)”, the CfaA/CfaB ratio came to 0.67.

For “CfaA (20–238) K164-N171 (8×A) (natural protein)”, the CfaA/CfaB ratio is 0.37.

In the case of CfaA (20–238) V116A (natural protein), the CfaA/CfaB ratio came out at 0.06.

For CfaA (20–238) R154A (natural protein), the CfaA/CfaB ratio came out at 0.44.

With CfaA (20–238) I118A (natural protein), the CfaA/CfaB ratio amounted to 0.11.

Take “CfaA (20–238) C163S/C172S (natural protein)”: the CfaA/CfaB ratio turned out to be 0.36.

As for CfaA (20–238) R125A (natural protein), the CfaA/CfaB ratio amounted to 0.47.

As to CfaA (20–238) T112A (natural protein), the CfaA/CfaB ratio is 0.67.
